Values from PubChem BioAssay AID624099 (ICCB-Longwood, 2012)
Purpose: 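Host factors E2 relies on to silence an HPV18 LCR reporter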 (primary screen). System: human C33A cervical carcinoma cells (HPV-negative) stably expressing BPV1 E2 and an HPV18 LCR luciferase reporter. Knock-down reagent: siRNA pool against human genes, 40 nM. Timing: 72 h. Measured: 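HPV18 LCR reporter light per well, converted to plate-wise z-scores that exclude control wells, and averaged over triplicate plates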. Direction: mean z-score and z-score: higher = stronger reporter signal, weaker E2 silencing. Call rule: 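Mean z ≥ 2 together with z ≥ 2 in two or more of the three replicates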.
Shown is a random part of about 21,000 deposited reagents. 497 of all reagents (2.4%) count as active. 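Higher z means weaker E2 silencing; only reporter increases were scored, and knock-downs that hurt cell survival may mask genuine repressor factors.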 Reagents against one gene are numbered here.

Target gene,pool no.,mean z-score,"z-score, replicate A","z-score, replicate B","z-score, replicate C",Outcome
EML2,1,2.08,2.06,1.99,2.19,active
IFITM1,1,-1.66,-1.67,-1.48,-1.82,inactive
SNRPA1,1,-0.26,-0.19,-0.41,-0.17,inactive
LOC389772 (retired record),1,-3.7,-3.15,-4.25,-3.69,inactive
E2F6,1,0.09,-0.03,0.17,0.13,inactive
MMACHC,1,-1.07,-0.94,-1.27,-1.01,inactive
PLPP7,1,-1.01,-1.02,-0.83,-1.19,inactive
CCDC27,1,0.52,-0.23,0.99,0.8,inactive
UBB,1,-3.26,-2.44,-3.64,-3.71,inactive
PDCL2,1,0.49,0.57,0.36,0.53,inactive
LY6G6C,1,0.11,-0.08,0.11,0.31,inactive
CAMP,1,1,0.76,1.09,1.15,inactive
OR56A4,1,0.83,0.43,0.97,1.09,inactive
CAMSAP1,1,0.76,1.03,0.87,0.39,inactive
TAS2R31,1,-0.4,-0.19,-0.42,-0.59,inactive
CORO2B,1,-0.6,-0.96,-0.53,-0.31,inactive
NR4A2,1,0.21,0.48,0.08,0.08,inactive
ARHGEF1,1,-0.82,-0.73,-0.98,-0.75,inactive
FLOT2,1,1.08,1.13,1.14,0.97,inactive
UROC1,1,-0.21,-0.06,-0.46,-0.11,inactive
ZNF687,1,-0.55,-0.08,-0.83,-0.73,inactive
PTGDR,1,0.19,0.51,0.07,-0.02,inactive
SPATA6L,1,-0.27,-0.08,-0.38,-0.34,inactive
LAP3,1,0.51,0.31,0.62,0.61,inactive
RBM46,1,0.92,1.28,0.81,0.69,inactive
BBS5,1,-0.73,-0.47,-0.76,-0.97,inactive
TNFRSF11B,1,0.17,0.22,0.04,0.25,inactive
LDHAL6A,1,-1.06,-1.55,-0.79,-0.86,inactive
LOC400988 (retired record),1,0.36,0.4,0.09,0.59,inactive
LOC389202 (retired record),1,0.12,0.39,0.18,-0.2,inactive
PLSCR2,1,1.69,1.76,1.39,1.91,inactive
SRCAP,1,-0.61,-0.41,-0.72,-0.71,inactive

Targets listed so far whose gene name begins with C or c (4):
Target gene,pool no.,mean z-score,"z-score, replicate A","z-score, replicate B","z-score, replicate C",Outcome
CCDC27,1,0.52,-0.23,0.99,0.8,inactive
CAMP,1,1,0.76,1.09,1.15,inactive
CAMSAP1,1,0.76,1.03,0.87,0.39,inactive
CORO2B,1,-0.6,-0.96,-0.53,-0.31,inactive

The listing continues.
Target gene,pool no.,mean z-score,"z-score, replicate A","z-score, replicate B","z-score, replicate C",Outcome
BID,1,0.79,0.9,0.74,0.74,inactive
PCDH11Y,1,-0.42,-0.34,-0.42,-0.5,inactive
POMC,1,-0.38,-0.43,-0.47,-0.24,inactive
GCHFR,1,-1.31,-1.15,-1.48,-1.29,inactive
ZNF585A,1,0.25,0.4,0.66,-0.29,inactive
SPNS3,1,0,-0.05,0.53,-0.48,inactive
MYRIP,1,0.13,0.26,0.2,-0.06,inactive
RNF38,1,-0.17,-0.24,-0.29,0.01,inactive
FOXC1,1,1.25,1.43,0.93,1.37,inactive
CASK,1,0.89,0.61,0.79,1.28,inactive
CFH,1,-1.9,-1.64,-2.04,-2.03,inactive
NKX2-3,1,0.55,0.69,0.33,0.62,inactive
XPO4,1,0.19,-0.21,0.32,0.46,inactive
EGFR,1,1.23,1.74,0.76,1.19,inactive
ASMT,1,-1.17,-0.86,-1.33,-1.31,inactive
ALKBH2,1,0.7,0.79,0.71,0.59,inactive
N4BP3,1,-1.7,-1.01,-1.88,-2.21,inactive
DNAH5,1,0.78,1.16,0.4,0.78,inactive
DNAH5,2,0.65,1.12,0.61,0.23,inactive
RABL2A,1,1.74,1.51,1.72,2,inactive
CCL18,1,0.37,0.23,0.43,0.44,inactive
LINC01587,1,-0.39,-0.49,-0.31,-0.36,inactive
OR4F17,1,-0.33,-0.36,-0.56,-0.08,inactive
LOC727756 (retired record),1,3.23,3.31,3.11,3.26,active
ALDH16A1,1,0.25,,0.29,0.21,inactive
SNX10,1,-0.87,-0.9,-0.72,-1,inactive
ATXN7L1,1,0.07,-0.07,0.04,0.23,inactive
ATXN7L1,2,0.53,0.47,0.48,0.65,inactive
ARMH3,1,-0.07,-0.32,-0.45,0.55,inactive
BTLA,1,-1.7,-1.31,-2.16,-1.64,inactive
NKX2-1,1,0.1,0.37,-0.06,-0.01,inactive
HCAR2,1,0.79,0.92,0.41,1.03,inactive
KDM5A,1,-1.16,-1.09,-1.27,-1.14,inactive
GGT7,1,-1.13,-1.41,-0.95,-1.03,inactive
TBC1D25,1,0.02,0.16,-0.17,0.08,inactive
FAM241A,1,-1.09,-1.19,-1.09,-0.98,inactive
BSDC1,1,1.48,1.29,1.55,1.59,inactive
C1QTNF7,1,0.46,0.38,0.37,0.61,inactive
GAS2L2,1,0.98,0.89,0.98,1.06,inactive
MYBPC1,1,0.4,0.31,0.61,0.28,inactive
PRKRA,1,-1.17,-1.19,-1.2,-1.13,inactive
